Measured values from several laboratories, pooled; numbers as filed in NIAID ChemDB.

Common to all: growth or infection tests; organism: HIV-1; cell line: CEM; read-out: EC50

a–b is a range or a potency band.

structure	mutations	strain or isolate	read by	value
CCOC(=O)COc1cc(NC(=S)OC(C)C)ccc1Cl	RT-Y181C		syncytia	23.27 µM
Cc1occc1C(=S)Nc1ccc(Cl)c(OC(=O)OC(C)C)c1	RT-K103N		syncytia	12 µM
C/C(Cl)=C/COc1cc(NC(=S)c2ccoc2C)ccc1Cl	RT-L100I	TIBO R82150-resistant (RT L100I)	syncytia	0.04 µg/mL
Nc1cccc(S(=O)(=O)N(CC2CCCC2)C[C@@H](O)CN(CCc2ccccc2)C(=O)c2ccncc2)c1		IIIB	p24	<0.1 µM
Cc1ccsc1C(=O)Nc1ccc(Cl)c(C(=O)OC2CCCCC2)c1	RT-L100I		syncytia	14 µM
CC(C)CN(C[C@@H](O)[C@H](Cc1ccccc1)NC(=O)O[C@H]1CCOC1)S(=O)(=O)c1ccc(-c2ccccn2)s1		IIIB	p24	<1.001 µM
CC(C)=CCOc1cc(NC(=S)c2ccoc2C)ccc1Cl	RT-L100I		syncytia	0.021 µM
COc1ccc(NC(=S)C2=C(C)OCCS2)cc1OCC=C(Cl)Cl	RT-Y188H	HEPT-resistant (RT Y188H)	syncytia	2 µg/mL
COCC1=C(C(=O)Nc2ccc(Cl)c(C(=O)OC(C)C)c2)SCCO1	RT-L100I	TIBO-resistant (RT L100I)	syncytia	>10 µg/mL
CC(C)=CCOc1cc(NC(=S)c2ccsc2C)ccc1Cl	RT-K103N		syncytia	0.057 µM
Cc1cc(C)cc(Sc2c(C(C)C)c(=O)[nH]c(=S)n2COCCO)c1	RT-L100I	IIIB (TIBO 82150) (RT-L100I)	syncytia	0.009 µM
CC(C)OC(=S)Nc1ccc(Cl)c(COC(C)(C)C)c1	RT-L100I		syncytia	>31.66 µM
CC(C)OC(=O)c1cc(NC(=S)c2cccs2)ccc1Cl	RT-L100I		syncytia	2 µM
CC(C)OC(=S)Nc1ccc(Cl)c(C(=O)OC(C)(C)C)c1	RT-E138K		syncytia	4.244 µM
Cc1ccsc1C(=S)Nc1ccc(Cl)c(C(=O)OC2CCCCC2)c1	RT-V106A		syncytia	1.5 µM
CC(C)(C)CS(=O)(=O)N(CC1CCCC1)C[C@@H](O)CN(CCc1ccccc1)C(=O)c1ccccc1		IIIB	p24	<1 µM
C=CCOC(=O)N[C@@H](Cc1ccccc1)[C@H](O)CN(CC(C)C)S(=O)(=O)c1ccc(F)c(NC(C)=O)c1		IIIB	p24	<1.001 µM
C=CCOC(=O)N[C@@H](Cc1ccccc1)[C@H](O)CN(CC1CCCC1)S(=O)(=O)c1ccc(NC(C)=O)cc1		IIIB	p24	<1 µM
CCc1c(Sc2cc(C)cc(C)c2)n(COCc2ccccc2)c(=O)[nH]c1=O	RT-Y188H	IIIB	syncytia	0.63 µM
CCOC(=O)c1cc(NC(=O)C2=C(C)OCCS2)ccc1Cl	RT-V106A	Nevirapine-resistant (RT V106A)	syncytia	>10 µg/mL
COCCOC(=S)Nc1ccc(Cl)c(C(=O)OC(C)C)c1	RT-E138K		syncytia	18.08 µM
Cc1ccsc1C(=O)Nc1ccc(Cl)c(/C=N/OC(C)(C)C)c1	RT-E138K		syncytia	4.4 µM
CC(C)(C)OC(=O)N[C@@H](Cc1ccccc1)[C@H](O)CN(CC1CCCC1)S(=O)(=O)c1ccc(Cl)c(Cl)c1		IIIB	p24	<10 µM
CC[C@@H](C)OC(=S)Nc1ccc(Cl)c(C(=O)OC(C)C)c1	RT-V106A		syncytia	0.121 µM
COc1ccc(S(=O)(=O)N(CC2CCCC2)C[C@@H](O)CN(CCCc2ccccc2)C(=O)O[C@H]2CCOC2)cc1		IIIB	p24	<0.1 µM
CC(C)=CCOc1cc(NC(=S)c2ccoc2C)ccc1Cl	RT-Y181C	IIIB	syncytia	0.033 µM
Cc1ccsc1C(=S)Nc1ccc(Cl)c(/C=N/OC(C)(C)C)c1	RT-E138K		syncytia	0.135 µM
CC1=C(C(=O)Nc2cccc(C(=O)OC(C)C)c2)SCCO1	RT-E138K	TSAO-resistant (RT E138K)	syncytia	>10 µg/mL
CC(C)CN(C[C@@H](O)[C@H](Cc1ccccc1)NC(=O)O[C@H]1CCOC1)S(=O)(=O)c1ccc(Cl)c(Cl)c1		IIIB	p24	<0.101 µM
CCC1=C(C(=O)OCC2CCCCC2)C(c2cccc(C(=O)O)c2)NC(=O)N1			p24 / ELISA	>5 µM
C=CCOC(=O)c1cc(NC(=S)OC(C)C)ccc1Cl	RT-Y181C		syncytia	2.709 µM
CC(C)=CCOc1cc(NC(=S)c2ccoc2C)ccc1Cl	RT-K103N	IIIB	syncytia	0.069 µM
COc1ccc(S(=O)(=O)N(CC2CCCC2)C[C@@H](O)CN(CCc2ccccc2)C(=O)O[C@H]2CCOC2)cc1		IIIB	p24	<0.1 µM
CC(C)COC(=O)c1cc(NC(=S)OC(C)C)ccc1Cl	RT-L100I		syncytia	2.729 µM
NC(=O)C[C@H](NC(=O)c1ccc2ccccc2n1)C(=O)N[C@@H](Cc1ccccc1)[C@H](O)CN(Cc1ccccc1)S(=O)(=O)c1ccc(-c2ccon2)s1		IIIB	p24	<1 µM
Cn1cccc1C(=S)Nc1ccc(Cl)c(/C=N/OC(C)(C)C)c1	RT-L100I		syncytia	0.364 µM
CC(C)OC(=O)Oc1cc(NC(=S)OC(C)C)ccc1Cl	RT-Y181C		syncytia	18.08 µM
O=S(=O)(Cc1ccccc1I)c1cccc[n+]1[O-]		RF	syncytia	9 µg/mL
CCCSC(=Nc1ccc(Cl)c(C(=O)OC(C)C)c1)OC(C)C	RT-E138K		syncytia	23.62 µM
CC1=C(C(=S)Nc2ccc(Cl)c(C=NOC(C)(C)C)c2)CCCO1	RT-V106A		syncytia	0.067 µM
CO/N=C(\C)COc1cc(NC(=S)OC(C)C)ccc1Cl	RT-E138K		syncytia	1.511 µM
C=C(Cl)COc1cc(NC(=S)c2ccsc2C)ccc1C#N	RT-Y181C	Pyridone-resistant (RT Y181C)	syncytia	0.44 µg/mL
COc1ccccc1C(=S)Nc1ccc(Cl)c(C(=O)OC(C)C)c1	RT-L100I		syncytia	8.7 µM
Cc1ccc(C)c(CS(=O)c2ccc(Cl)c[n+]2[O-])c1		IIIB	p24	~20 µg/mL
CCC1=C(C(=O)OCC2CCCCC2)[C@H](c2ccc(OC(=O)c3ccncc3)cc2)NC(=O)N1			p24 / ELISA	≤1 µM
CCc1c(Sc2ccccc2)n(COCc2ccccc2)c(=O)[nH]c1=O	RT-Y188H	IIIB	syncytia	13 µM
CC1=C(C(=O)Nc2ccc(Cl)c(OCC=C(Cl)Cl)c2)SCCO1	RT-V106A	Nevirapine-resistant isolate (RT V106A)	syncytia	2 µg/mL
O=C(N[C@@H](Cc1ccccc1)[C@H](O)CN(CC1CCCC1)S(=O)(=O)c1ccc(F)cc1)O[C@@H]1CCOC1		IIIB	p24	<1 µM
Cc1ccsc1C(=S)Nc1ccc(Cl)c(C(=O)OC(C)C)c1	RT-L100I		syncytia	9 µM
O=C(N[C@@H](Cc1ccccc1)C(=O)C(F)(F)C(Cc1ccccc1)NS(=O)(=O)c1ccccc1)OC1COCOC1		IIIB	p24	<1 µM
CCC1=C(c2nc(C3CCCCC3)cs2)C(c2ccc(O)cc2)NC(=O)N1			p24 / ELISA	≤1 µM
CC(=O)Nc1cccc(S(=O)(=O)N(CC(C)C)C[C@@H](O)[C@H](Cc2ccccc2)NC(=O)[C@H](CC(N)=O)NC(=O)c2ccc3ccccc3n2)c1		IIIB	p24	<0.101 µM
Cc1cc(C)c(CS(=O)c2cccc[n+]2[O-])c(C)c1		IIIB	p24	~20 µg/mL
Cc1occc1C(=S)Nc1ccc(Cl)c(/C=N/OCc2ccccc2)c1		IIIB	syncytia	1 µM
CC(C)OC(=O)c1cc(NC(=S)OC(C)C)ccc1Cl	RT-Y188H	IIIB	syncytia	2.1 µM
CC(=O)Nc1ccc(S(=O)(=O)N(CC(C)C)C[C@@H](O)[C@H](Cc2ccccc2)NC(=O)O[C@H]2CCOC2)cc1		IIIB	p24	<1 µM
COc1ccc(S(=O)(=O)N(CC(O)CN(CCc2ccccc2)C(=O)[C@@H](NC(=O)OCc2ccccc2)C(C)C)CC2CCCC2)cc1		IIIB	p24	<0.1 µM
CC(C)OC(=S)Nc1ccc(Cl)c(C(=O)OC2CCCC2)c1	RT-E138K		syncytia	1.755 µM
CC(C)CN(C[C@@H](O)[C@H](Cc1ccccc1)NC(=O)O[C@H]1CCOC1)S(=O)(=O)c1cccnc1		IIIB	p24	<0.101 µM
CCOCn1c(Sc2cc(C)cc(C)c2)c(CC)c(=O)[nH]c1=O		IIIB	syncytia	0.004 µM
CC1=C(C(=O)OCC2CCCCC2)C(c2cccc(OC(=O)c3ccccc3)c2)NC(=O)N1			p24 / ELISA	≤1 µM
C=CCSc1cc(NC(=S)OC(C)C)ccc1Cl	RT-V106A		syncytia	1.593 µM
CCC1=C(C(=O)OCC2CCCCC2)[C@H](c2ccc(OC(=O)[C@H](C)[NH3+])cc2)NC(=O)N1			p24 / ELISA	≤1 µM
CCOCn1c(Sc2ccccc2)c(C(C)C)c(=O)[nH]c1=O	Nevirapine resistant (RT Y181C)	IIIB	syncytia	2 µM
CC(=O)Nc1ccc(S(=O)(=O)N(CC(C)C)C[C@@H](O)[C@H](Cc2ccccc2)NC(=O)OC(C)C)cc1		IIIB	p24	<1.001 µM
CC(C)CN(C[C@@H](O)[C@H](Cc1ccccc1)NC(=O)O[C@@H]1CCOC1)S(=O)(=O)c1ccc(F)cc1		IIIB	p24	<1 µM
CC1=C(C(=O)Nc2ccc(Cl)c(C(=O)OC(C)C)c2)SCCO1	RT-Y181C	PYR-resistant (RT Y181C)	syncytia	15 µg/mL
COc1ccc(NC(=O)c2ccoc2C)cc1OCC=C(Cl)Cl		IIIB	syncytia	0.25 µg/mL
CC1=C(C(=O)Nc2ccc(Cl)c(C(=O)OCC3CCC3)c2)SCCO1	RT-E138K	TSAO-resistant (RT E138K)	syncytia	4.5 µg/mL
CC1=C(C(=O)OCC2CCCCC2)C(c2cccnc2)NC(=O)N1			p24 / ELISA	1–5 µM
CC1=C(C(=O)Nc2ccc(Cl)c(C(=O)OC(C)C)c2)SCCO1	RT-K101E	IIIB		0.042 µM
CCC1=C(C(=O)Cc2ccccc2)[C@H](c2ccc(O)c(Cl)c2)NC(=O)N1			p24 / ELISA	>5 µM
Cc1occc1C(=S)Nc1ccc(Cl)c(SCC=C(Cl)Cl)c1	RT-Y188H	HEPT-resistant (RT Y188H)	syncytia	2 µg/mL
CC1=C(C(=O)Nc2ccc(Cl)c(C(=O)OC(C)C)c2)SCCO1	RT-Y188L	IIIB	syncytia	15 µM
CCC(CC)COC(=O)c1cc(NC(=S)OC(C)C)ccc1Cl	RT-Y181C		syncytia	6.985 µM
C=C(Cl)COc1cc(NC(=S)c2ccoc2C)ccc1Cl	RT-E138K	TSAO-m3T-resistant (RT E138K)	syncytia	0.26 µg/mL
CC(C)OC(=S)Nc1ccc(Cl)c(C(=O)OCC[Si](C)(C)C)c1		IIIB	syncytia	0.535 µM
C=CCOC(=O)c1cc(NC(=S)c2ccoc2C)ccc1Cl	RT-L100I		syncytia	1 µM
CN1CCN(C(=O)c2ccc3c(=O)c4ccccc4[nH]c3c2)CC1	RT-L100I	TIBO-resistant (RT L100I)	syncytia	0.45 µg/mL
C/C=C/COc1cc(NC(=S)c2ccoc2C)ccc1Cl	RT-L100I		syncytia	1.7 µM
CO/N=C/c1cc(NC(=S)OC(C)C)ccc1Cl		IIIB	syncytia	0.209 µM
C/C=C/CSc1cc(NC(=S)c2ccsc2C)ccc1Cl	RT-V106A		syncytia	0.078 µM
CCC1=C(C(=O)Nc2ccc(Cl)c(C(=O)OC(C)C)c2)SCCO1	RT-Y181C	PYR-resistant (RT Y181C)	syncytia	5 µg/mL
CCc1c(Cc2cc(C)cc(C)c2)n(COCCO)c(=O)[nH]c1=O	RT-Y181I	IIIB	syncytia	2.5 µM
COc1ccc(NC(=S)OC(C)C)cc1CC(=O)OC(C)C		IIIB	syncytia	0.025 µM
CC(C)c1c(Sc2ccccc2)n(COCc2ccccc2)c(=O)[nH]c1=O	RT-E138K	IIIB	syncytia	0.02 µM
CC(C)OC(=S)Nc1ccc(Cl)c(C(=O)SC(C)C)c1	RT-L100I		syncytia	1.657 µM
O=C(Nc1ccc(Cl)c(C(=O)OC2CCCCC2)c1)c1ccccc1F	RT-E138K		syncytia	11 µM

Neighbouring rows are from separate reports. Blank or dashed fields: not listed here. ECn: concentration that inhibits the pathogen or its effect by n%.